Laboratory results from patent US20250057791A1, “PROTECTION AGAINST ARTHROPOD PARASITES WITH PURINERGIC RECEPTOR (OPR) ANTAGONISTS” (priority 2021, published 2025).

System: A. gambiae labellum sensilla (purine-sensitive cell)
Test: Tip recording of action potentials from A. gambiae labellum sensilla in response to agonists
Assay type: cell-based, Anopheles gambiae
Conditions: for Spike amplitude (mean±s.e.m.): 200 pM ATP, 200 pM adenosine, 1 mM sucrose
Method: The tip recording method was used to record action potentials (spikes) from sensory cells in sensilla on A. gambiae labellum lobes.
Sensilla were exposed to test compounds and PR antagonists for ca. 2-4 s and spikes were counted in the first 2 s of recordings. Up to 4 test compounds were tested on a sensillum to evaluate potential agonists, each presented at 200 pM. To study responses as a function of dose for agonists ATP, adenosine, AMP, AMP-CPP and ATP+adenosine, up to 7 recordings were made at increasing doses of agonist from the same sensillum. Unless otherwise stated, recordings were made throughout from 4 to 16 sensilla from individual 4-6-day-old females per dose of agonist, antagonist and metal ion modulator. For example, a response curve established over 6 doses of an antagonist using 8 sensilla per dose involved recording from a sensillum of 48 separate mosquitoes. A given dose of a PR antagonist or metal ion modulator was only presented once to a sensillum. Two-second recordings were imported as ASCII files into DataView software for analysis of spike amplitude. […]
Spike counts elicited by 200 pM doses of nucleotides, nucleosides, purines, pyrimidines and water were log(x+1.25)-transformed (optimal constant numerically established using a maximum likelihood procedure) and analysed using a linear mixed effects model (function ‘lme’ in “nlme” R package) with mosquito number as random effect. […] Spike counts elicited by ATP, AMP, adenosine and their binary mixtures were analysed using a generalised linear model (LM) of log (x+10) transformed data and differences were identified using post-hoc-Tukey test with Holm's FWEC. […]
Dose-response models fitted to mosquito data were generated using the ‘drm’ command in the “drc” R package (version 2.5-12). Best fitting models (goodness of fit) and effects of dose of a compound were assessed using, respectively, ‘modelFit’ and ‘noEffect’ functions in the same R package. A 3-parameter logistic model (L3) was fitted to spike-counts recorded to increasing doses of adenosine, AMP, ATP and AMP-CPP. […]

SMILES	Spike amplitude (mean±s.e.m.)	Spike amplitude relative to that elicited by ATP or adenosine (1 mM sucrose vs 200 pM ATP)
Nc1ncnc2c1ncn2[C@@H]1O[C@H](CO)[C@@H](O)[C@H]1O [Adenosine, 9-β-D-Ribofuranosyladenine]	2.57 mV	
OC[C@H]1O[C@@](CO)(O[C@H]2O[C@H](CO)[C@@H](O)[C@H](O)[C@H]2O)[C@@H](O)[C@@H]1O [sucrose, D-(+)-sucrose]	4.44 mV	1.7 times
